Measurements reported in PubChem BioAssay AID504761 (Drosophila RNAi Screening Center, 2011).
In all, the deposit lists about 22,000 reagents; shown is a random part of those that have a named target and a result. In the full data, 116 (0.52%) are marked active. 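Calls depend on retest data that are not deposited; infection was ranked per plate without normalising between plates; the unit of the infection score is not given.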 Raw values vary from plate to plate and are shown uncorrected. Unmarked entries are inactive. Reagents against one gene are numbered here. Reagent sequences are not shown. Not stated in the record: the amount of reagent, the time to read-out.

Assay: 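Insect host genes that dengue virus relies on to spread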 (primary screen)
System: D.Mel-2 cells from Drosophila
Reagent: long dsRNA against Drosophila genes
Conditions: infection with dengue virus type 2; dose and infection time not stated
Read-out: 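Cells stained for dengue envelope protein and imaged; percent of infected cells per well on duplicate plates, ranked by infection, with stained nuclei counted for cell number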
Direction: infection score: higher = more virus-infected cells; cell count: higher = more cells in the well
Rule for the call: 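Low infection ranks in the two replicates (chance level up to 0.065) followed by a retest with a 1.5-fold or larger significant decrease, p below 0.05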
Meaning of the calls: active = confirmed: knock-down lowers infection; inactive = not picked or not confirmed

Silencing of Phs #1 came out at: infection score, replicate 1 = 19.4; infection score, replicate 2 = 20.7; cell count, replicate 1 = 5398; cell count, replicate 2 = 5833. After knock-down of Phs #2, the screen gave infection score, replicate 1 = 26.5; infection score, replicate 2 = 8.35; cell count, replicate 1 = 5462; cell count, replicate 2 = 5904. Silencing of CG6870 #1 resulted in: infection score, replicate 1 = 11.9; infection score, replicate 2 = 1.69; cell count, replicate 1 = 5721; cell count, replicate 2 = 6790. Knock-down of CG6870 #2 resulted in: infection score, replicate 1 = 9.23; infection score, replicate 2 = 3.45; cell count, replicate 1 = 6425; cell count, replicate 2 = 6326. Against kappaTry the deposit lists infection score, replicate 1 = 20.7; infection score, replicate 2 = 40.4; cell count, replicate 1 = 5671; cell count, replicate 2 = 5119. Silencing of CG12056 resulted in: infection score, replicate 1 = 4.98; infection score, replicate 2 = 2.7; cell count, replicate 1 = 6784; cell count, replicate 2 = 6678.

For CG42272 #1, the entry reads infection score, replicate 1 = 4.14; infection score, replicate 2 = 2.4; cell count, replicate 1 = 4763; cell count, replicate 2 = 1914. CG42272 #2 gave infection score, replicate 1 = 3.04; infection score, replicate 2 = 7.43; cell count, replicate 1 = 5430; cell count, replicate 2 = 5799. CG42272 #3 scored infection score, replicate 1 = 4.58; infection score, replicate 2 = 17.5; cell count, replicate 1 = 6828; cell count, replicate 2 = 6109. For CG42272 #4, the entry reads infection score, replicate 1 = 2.38; infection score, replicate 2 = 7.34; cell count, replicate 1 = 6231; cell count, replicate 2 = 6349. NijA gave infection score, replicate 1 = 3.75; infection score, replicate 2 = 2.11; cell count, replicate 1 = 5766; cell count, replicate 2 = 6253. Knock-down of Obp99b #1 came out at: cell count, replicate 1 = 306; cell count, replicate 2 = 381.

Silencing of Obp99b #2 came out at: infection score, replicate 1 = 5.03; infection score, replicate 2 = 13.4; cell count, replicate 1 = 1432; cell count, replicate 2 = 6422.
